Anti-infective test results gathered from many reports (values: NIAID ChemDB through PubChem).

All rows: whole-cell or culture tests; species: HIV-1; cell line: MT-2; measure: EC50

ECn is the concentration giving n% inhibition of infection, replication or growth. Conditions beyond the fields shown may differ between rows. Blank or dashed fields: not listed here.

compound | strain or isolate | changes | read by | value
Cc1cc(C)c2c(c1)N[C@H](c1cccc(N)c1)C[C@@H]2N1CCCC1=O | NL4-3-Luc | - | luciferase | >149 µM
OC[C@@H]1C=C[C@H](n2cnc3c(Cl)ncnc32)C1 | - | - | cytopathic effect / XTT | >10 µg/mL
OC[C@@H]1C=C[C@H](n2cnc3c(Cl)ncnc32)C1 | IIIB | - | cytopathic effect / XTT | >10 µg/mL
CC(C)C1=C2[C@H]3CC[C@@H]4[C@@]5(C)CC[C@H](OC(=O)[C@H]6C[C@@H](C(=O)O)C6(C)C)C(C)(C)[C@@H]5CC[C@@]4(C)[C@]3(C)CC[C@@]2(CCNCc2ncccn2)CC1=O | 92HT599 | - | p24 / ELISA | <1 µM
Nc1nc2c(ncn2[C@H]2C=C[C@@H](CO)C2)c(=O)[nH]1 | IIIB | - | cytopathic effect / XTT | 0.15 µg/mL
C=C(C)[C@@H]1CC[C@]2(NCCN3CCN(S(C)(=O)=O)CC3)CC[C@]3(C)[C@H](CC[C@@H]4[C@@]5(C)CC[C@H](OC(=O)[C@H]6C[C@@H](C(=O)O)C6(C)C)C(C)(C)[C@@H]5CC[C@]43C)[C@@H]12 | 92HT599 | - | p24 / ELISA | ≤0.01 µM
CCCCCCCCCCCCCCCCOCCCOP(=O)(O)CO[C@H](CO)Cn1cnc2c(N)ncnc21 | 4xAZT | RT-D67N K70R T215Y K219Q | p24 | 0.005 µM
CC(C)C1=C2[C@H]3CC[C@@H]4[C@@]5(C)CC[C@H](OC(=O)[C@H]6C[C@@H](C(=O)O)C6(C)C)C(C)(C)[C@@H]5CC[C@@]4(C)[C@]3(C)CC[C@@]2([C@@H](O)CNC(=O)c2ccc(F)cc2)CC1=O | 92HT599 | - | p24 / ELISA | <1 µM
Cc1ccc2c(c1)[C@@H](N1CCCC1=O)C[C@@H](c1cccc(N)c1)N2 | NL4-3 | - | MTT | >50 µM
CC(C)N(C[C@H](O)[C@H](Cc1ccccc1)NC(=O)[C@H](CC(N)=O)NC(=O)c1ccc2ccccc2n1)NC(=O)OC(C)(C)C | Clinical isolate strain 237228 | - | cytopathic effect / RT activity / trypan blue | <0.1 µM
CC(C)C1=C2[C@H]3CC[C@@H]4[C@@]5(C)CC[C@H](OC(=O)[C@H]6C[C@@H](C(=O)O)C6(C)C)C(C)(C)[C@@H]5CC[C@@]4(C)[C@]3(C)CC[C@@]2(CCNC(=O)c2cccnc2N2CCOCC2)CC1=O | 92HT599 | - | p24 / ELISA | <1 µM
CC1([C@@H]2CC[C@]3(NCCN4CCN(S(=O)(=O)c5ccccc5)CC4)CC[C@]4(C)[C@H](CC[C@@H]5[C@@]6(C)CC[C@H](OC(=O)[C@H]7C[C@@H](C(=O)O)C7(C)C)C(C)(C)[C@@H]6CC[C@]54C)[C@@H]23)CC1 | 92HT599 | - | p24 / ELISA | ≤0.01 µM
Cc1ccc(N2C(=O)/C(=C/c3ccc(-c4ccc(Cl)c(C(=O)O)c4)o3)SC2=S)c(C)c1 | IIIB | - | cytopathic effect | 0.66 µM
CC(C)S(=O)(=O)N1CCN(CCN[C@]23CC[C@@H](C4(C)CC4)[C@@H]2[C@H]2CC[C@@H]4[C@@]5(C)CC[C@H](OC(=O)[C@H]6C[C@@H](C(=O)O)C6(C)C)C(C)(C)[C@@H]5CC[C@@]4(C)[C@]2(C)CC3)CC1 | 92HT599 | - | p24 / ELISA | ≤0.01 µM
CC(C)C1=C2[C@H]3CC[C@@H]4[C@@]5(C)CC[C@H](OC(=O)[C@H]6C[C@@H](C(=O)O)C6(C)C)C(C)(C)[C@@H]5CC[C@@]4(C)[C@]3(C)CC[C@@]2([C@@H](O)CNC(=O)c2ccc(Cl)cc2OC2CCNCC2)CC1=O | 92HT599 | - | p24 / ELISA | <1 µM
COc1cc2c(c(OC)c1)[C@@H](N1CCCC1=O)C[C@@H](c1cccc([N+](=O)[O-])c1)N2 | NL4-3-Luc | - | luciferase | 53.73 µM
C=C(C)[C@@H]1CC[C@]2(NCCN3CCN(C(=O)c4ccccc4)CC3)CC[C@]3(C)[C@H](CC[C@@H]4[C@@]5(C)CC[C@H](OC(=O)[C@H]6C[C@@H](C(=O)O)C6(C)C)C(C)(C)[C@@H]5CC[C@]43C)[C@@H]12 | 92HT599 | - | p24 / ELISA | ≤0.01 µM
COc1ccc2nc(-c3cccc(N)c3)ccc2c1 | NL4-3-Luc | - | luciferase | 9.67 µM
CC(C)(C)OC(=O)N1CC2CCCCC2CN1CC(O)[C@H](Cc1ccccc1)NC(=O)[C@H](CCC(N)=O)NC(=O)c1ccc2ccccc2n1 | Clinical isolate strain 237228 | - | cytopathic effect / RT activity / trypan blue | <1 µM
OC[C@@H]1C=C[C@H](n2cnc3c(=S)nc[nH]c32)C1 | IIIB | - | cytopathic effect / XTT | >10 µg/mL
CC(C)(C)OC(=O)NN(Cc1ccccc1)C[C@H](O)[C@H](Cc1ccccc1)NC(=O)[C@H](CC(N)=O)NC(=O)c1ccc2ccccc2n1 | Clinical isolate strain 237228 | - | cytopathic effect / RT activity / trypan blue | <1 µM
NC(N)=NCCC[C@H](N)C(=O)NC[C@@H]1OC(O[C@H]2[C@@H](O)[C@H](O[C@@H]3[C@@H](O)[C@H](NC(=O)[C@@H](N)CCCN=C(N)N)C[C@H](NC(=O)[C@@H](N)CCCN=C(N)N)[C@H]3O[C@H]3O[C@H](CNC(=O)[C@@H](N)CCCN=C(N)N)[C@@H](O)[C@H](O)[C@H]3NC(=O)[C@@H](N)CCCN=C(N)N)O[C@@H]2CO)[C@H](NC(=O)[C@@H](N)CCCN=C(N)N)[C@@H](O)[C@@H]1O | IIIB | AZT-resistant | p24 / RT activity | 2.7 µM
Nc1nc(NC2CC2)c2ncn([C@H]3CO[C@@H](CO)O3)c2n1 | HXB2(RT-K65R) Recombinant | RT-K65R | RT activity | 1 µM
CC1([C@@H]2CC[C@]3(NCCN4CCN(S(=O)(=O)Cc5ccccc5)CC4)CC[C@]4(C)[C@H](CC[C@@H]5[C@@]6(C)CC[C@H](OC(=O)[C@H]7C[C@@H](C(=O)O)C7(C)C)C(C)(C)[C@@H]6CC[C@]54C)[C@@H]23)CC1 | 92HT599 | - | p24 / ELISA | ≤0.01 µM
Nc1nc2c(ncn2[C@H]2C=C[C@@H](CO)C2)c(=O)[nH]1 | - | - | cytopathic effect / XTT | 0.66 µg/mL
O=C(O)c1cccc(-c2ccc(/C=C3\SC(=S)N(Cc4ccco4)C3=O)o2)c1 | IIIB | - | p24 | 26.68 µM
C=C1[C@H](CO)[C@@H](O)C[C@@H]1n1cnc2c(=O)[nH]c(N)nc21 | - | - | cytopathic effect / XTT | 11 µM
COc1ccc(N2C(=O)/C(=C/c3ccc(-c4ccc(Cl)c(C(=O)O)c4)o3)SC2=S)cc1 | IIIB | - | cytopathic effect | 1.887 µM
CC(C)C1=C2[C@H]3CC[C@@H]4[C@@]5(C)CC[C@H](OC(=O)[C@H]6C[C@@H](C(=O)O)C6(C)C)C(C)(C)[C@@H]5CC[C@@]4(C)[C@]3(C)CC[C@@]2(CCNC(=O)c2ccc3nc(-c4ccccc4)[nH]c3c2)CC1=O | 92HT599 | - | p24 / ELISA | <1 µM
COc1ccccc1N1C(=O)/C(=C/c2ccc(-c3cccc(C(=O)O)c3)o2)SC1=S | IIIB | - | p24 | 2.65 µM
Cc1nn2cc1CCCCCCC1(C)CCN(CC1)c1c([C@H](OC(C)(C)C)C(=O)O)c(C)nc3cc(nn13)-c1cccc-2c1 | - | - | luciferase | 0.004 µM
CC(O)[C@H](NC(=O)c1ccc2ccccc2n1)C(=O)N[C@@H](Cc1ccccc1)C(O)CN1CC2CCCCC2CN1C(=O)OC(C)(C)C | Clinical isolate strain 237228 | - | cytopathic effect / RT activity / trypan blue | <1 µM
CC(C)C1=C2[C@H]3CC[C@@H]4[C@@]5(C)CC[C@H](OC(=O)[C@H]6C[C@@H](C(=O)O)C6(C)C)C(C)(C)[C@@H]5CC[C@@]4(C)[C@]3(C)CC[C@@]2([C@@H](O)CNC2(c3ncc(Cl)cn3)CC2)CC1=O | 92HT599 | - | p24 / ELISA | <1 µM
Cc1ccc(-c2c([C@H](OC(C)(C)C)C(=O)O)c(C)nc3ccccc23)cc1C | - | - | - | 0.036 µM
CC(C)N(C[C@H](O)[C@H](Cc1ccccc1)NC(=O)[C@H](CC(N)=O)NC(=O)c1ccc2ccccc2n1)NC(=O)NC(C)(C)C | Clinical isolate strain 237228 | - | cytopathic effect / RT activity / trypan blue | <1 µM
COc1cc(OC)c2ccc(-c3cccc([N+](=O)[O-])c3)nc2c1 | NL4-3-Luc | - | luciferase | 16.74 µM
O=C(O)c1cc(-c2ccc(/C=C3\SC(=S)N(c4cccc([N+](=O)[O-])c4)C3=O)o2)ccc1Cl | IIIB | - | p24 | 0.943 µM
Nc1nc(N)c2ncn([C@H]3C=C[C@@H](CO)C3)c2n1 | - | - | cytopathic effect / XTT | 2.9 µg/mL
CC(C)C1=C2[C@H]3CC[C@@H]4[C@@]5(C)CC[C@H](OC(=O)[C@H]6C[C@@H](C(=O)O)C6(C)C)C(C)(C)[C@@H]5CC[C@@]4(C)[C@]3(C)CC[C@@]2(CCNC(=O)c2ccc(N3CCC(N4CCOCC4)CC3)cc2)CC1=O | 92HT599 | - | p24 / ELISA | <1 µM
COc1ccc2nc(-c3cccc([N+](=O)[O-])c3)ccc2c1 | NL4-3-Luc | - | luciferase | 8.97 µM
C=C(C)[C@@H]1CC[C@]2(NCCN3CCN(S(=O)(=O)Cc4ccccc4)CC3)CC[C@]3(C)[C@H](CC[C@@H]4[C@@]5(C)CC[C@H](OC(=O)[C@H]6C[C@@H](C(=O)O)C6(C)C)C(C)(C)[C@@H]5CC[C@]43C)[C@@H]12 | 92HT599 | - | p24 / ELISA | ≤0.01 µM
CCCCCCCCCCCCCCCCCCOCCOP(=O)(O)CO[C@H](CO)Cn1cnc2c(N)ncnc21 | - | RT-K103N | p24 | 0.00035 µM

Repeating the final 6 entries:

compound	strain or isolate	changes	read by	value
O=C(O)c1cc(-c2ccc(/C=C3\SC(=S)N(c4cccc([N+](=O)[O-])c4)C3=O)o2)ccc1Cl	IIIB	-	p24	0.943 µM
Nc1nc(N)c2ncn([C@H]3C=C[C@@H](CO)C3)c2n1	-	-	cytopathic effect / XTT	2.9 µg/mL
CC(C)C1=C2[C@H]3CC[C@@H]4[C@@]5(C)CC[C@H](OC(=O)[C@H]6C[C@@H](C(=O)O)C6(C)C)C(C)(C)[C@@H]5CC[C@@]4(C)[C@]3(C)CC[C@@]2(CCNC(=O)c2ccc(N3CCC(N4CCOCC4)CC3)cc2)CC1=O	92HT599	-	p24 / ELISA	<1 µM
COc1ccc2nc(-c3cccc([N+](=O)[O-])c3)ccc2c1	NL4-3-Luc	-	luciferase	8.97 µM
C=C(C)[C@@H]1CC[C@]2(NCCN3CCN(S(=O)(=O)Cc4ccccc4)CC3)CC[C@]3(C)[C@H](CC[C@@H]4[C@@]5(C)CC[C@H](OC(=O)[C@H]6C[C@@H](C(=O)O)C6(C)C)C(C)(C)[C@@H]5CC[C@]43C)[C@@H]12	92HT599	-	p24 / ELISA	≤0.01 µM
CCCCCCCCCCCCCCCCCCOCCOP(=O)(O)CO[C@H](CO)Cn1cnc2c(N)ncnc21	-	RT-K103N	p24	0.00035 µM